System: HCV
Settings: 105 patients with no detectable anti-HCV or anti-HBV antibodies

Compound: CC(C)c1nc(CN(C)C(=O)N[C@H](C(=O)N[C@@H](Cc2ccccc2)C[C@H](O)[C@H](Cc2ccccc2)NC(=O)OCc2cncs2)C(C)C)cs1 [ritonavir]
- patients with an increase in the ALAT concentrations, control population: 11.4%

Source: patent US6506555B1, “Use of HIV protease inhibiting compounds” (Institut National de la Sante et de la Recherche Medicale …, priority 1998, dated 2003)
